Data set [1] addresses sheep prion protein, P23907.

B1: enzyme composition A used in the present invention (protein)
chain: AQTVPYGIPLIKADKVQAQGYKGANVKVGIIDTGIASSHTDLKVVGGASFVSGESYNTDGNGHGTHVAGTVAALDNTTGVLGVAPNVSLYAIKVLNSSGSGTYSAIVSGIEWATQNGLDVINMSLGGPSGSTALKQAVDKAYASGIVVVAAAGNSGSSGSQNTIGYPAKYDSVIAVGAVDSNKNRASFSSVGSELEVMAPGVSVYSTYPSNTYTSLNGTSMASPHVAGAAALILSKYPTLSASQVRNRLSSTATNLGDSFYYGKGLINVEAAAQ
Take B1: the “digestion of pathogenic prion protein in 1% brain homogenate, Western blot” value in data set [1] is “the pathogenic prion protein was almost completely digested at any concentration”.

B2: purified enzyme used in the present invention, from Bacillus licheniformis MSK-103 (FERM BP-08487) (protein)
chain: B1 chain
In the case of B2, the Digestion activity (U) with casein amounted to 327000 U; with collagen, 37000 U; with elastin, 10500 U; with keratin, 7190 U.

These data come from US20060134092.
